Measured values from several laboratories, pooled; numbers as filed in NIAID ChemDB.

Shared fields: tests on isolated targets; agent: HIV-1; protein: Protease; read-out: inhibition

Lines come from different laboratories, so protocols vary. An empty or dashed field is not shown. Inhibition is in % at the dose shown (toxicity tests: loss of growth or viability).

{"structure": "CCCCC1(CCCC)OC(=O)C(C(c2ccccc2)C2CC2)=C1O", "read by": "fluorescence", "dose": "3.3 µM", "value": "100%"}
{"structure": "CC[C@H](C)[C@H](NC(=O)[C@H](Cc1ccccc1)NCC(O)[C@H](Cc1ccccc1)NC(=O)OC(C)(C)C)C(=O)N[C@@H](Cc1ccccc1)C(=O)OC", "dose": "10 µM", "value": "91%"}
{"structure": "O=C(O)[C@@H]1O[C@@H](Oc2cc3oc(-c4ccccc4)cc(=O)c3c(O)c2O)[C@@H](O)[C@H](O)[C@H]1O", "read by": "substrate cleavage / fluorescence", "dose": "1000 µg/mL", "value": "53.5%"}
{"structure": "O=C1OC(CCCc2ccccc2)(Cc2ccccc2)C(O)=C1C(c1ccccc1)C1CC1", "read by": "fluorescence", "dose": "3.3 µM", "value": "100%"}
{"structure": "CO[C@@H]([C@@H](CC(C)[C@@H]1CC[C@]2(C)C3=CCC4C(C)(C)C(O)CC[C@]4(C)C3CC[C@@]12C)OC(C)(C)C)C(C)(C)O", "read by": "substrate cleavage / fluorescence", "dose": "100 µg/mL", "value": "41.6%"}
{"structure": "CCOC(=O)[C@@]1(C)CC[C@]2(C)CC[C@]3(C)C(=CC(=O)[C@@H]4[C@@]5(C)CC/C(=N\\OCc6ccc(Cl)cc6)C(C)(C)[C@@H]5CC[C@]43C)[C@@H]2C1", "read by": "substrate cleavage / fluorescence", "dose": "1000 µg/mL", "value": "11.8%"}
{"structure": "CC[C@H](C)[C@H](NC(=O)CN(O)C(=O)[C@H](Cc1ccccc1)NC(=O)OC(C)(C)C)C(=O)N[C@@H](Cc1ccccc1)C(=O)O", "dose": "10 µM", "value": "13%"}
{"structure": "O=c1cc(-c2ccc(O)cc2)oc2cc(O)cc(O)c12", "read by": "substrate cleavage / fluorescence", "dose": "1000 µg/mL", "value": "91.3%"}
{"structure": "CO[C@H]1[C@H](OCc2ccccc2)[C@@H](O)[C@H](Oc2ccccc2)O[C@@H]1CNC(=O)C(NC(C)=O)C(C)C", "dose": "100 µM", "value": "19%"}
{"structure": "CCCC1(Cc2ccccc2)OC(=O)C(C(c2ccccc2)C2CC2)=C1O", "read by": "fluorescence", "dose": "3.3 µM", "value": "100%"}
{"structure": "CC(=O)O[C@H](CC(C)[C@@H]1CC[C@]2(C)C3=CCC4C(C)(C)C(=O)CC[C@]4(C)C3CC[C@@]12C)[C@H](OC(C)=O)C(C)(C)O", "read by": "substrate cleavage / fluorescence", "dose": "100 µg/mL", "value": "41.2%"}
{"structure": "COC(=O)[C@@H](CC(C)C)N1C[C@@H]2O[C@H](C1=O)[C@H](C(=O)N1CCCCC1)O2", "read by": "FRET", "dose": "10 µM", "value": "0%"}
{"structure": "CC(C)(C)NC(=O)[C@@H]1CC2CCCCC2CN1C(=O)[C@@H](O)[C@H](Cc1ccccc1)NC(=O)[C@H](CS(C)(=O)=O)NC(=O)COc1cccc2ccccc12", "dose": "0.05 µM", "value": "4.1%"}
{"structure": "CCC1(CCc2ccccc2)OC(=O)C(C(c2ccccc2)C2CC2)=C1O", "read by": "fluorescence", "dose": "3.3 µM", "value": "100%"}
{"structure": "CCOC(=O)[C@@]1(C)CC[C@]2(C)CC[C@]3(C)C(=CC(=O)[C@@H]4[C@@]5(C)CC/C(=N\\OCc6ccc(F)c(F)c6)C(C)(C)[C@@H]5CC[C@]43C)[C@@H]2C1", "read by": "substrate cleavage / fluorescence", "dose": "1000 µg/mL", "value": "38.5%"}
{"structure": "CC(C)(C)OC(=O)N[C@@H](Cc1ccccc1)[C@H](O)C(=O)N1CCC[C@H]1C(=O)N[C@@H](CCC(N)=O)C(=O)NCC1CCCCC1", "dose": "1000 µM", "value": "37.1%"}
{"structure": "CCOC(=O)[C@@]1(C)CC[C@]2(C)CC[C@]3(C)C(=CC(=O)[C@@H]4[C@@]5(C)CC/C(=N\\OCc6ccc(C(F)(F)F)cc6)C(C)(C)[C@@H]5CC[C@]43C)[C@@H]2C1", "read by": "substrate cleavage / fluorescence", "dose": "1000 µg/mL", "value": "26.2%"}
{"structure": "COC(=O)[C@@H](NC(=O)C[C@@H]1CC[C@H](NC(=O)[C@H](Cc2ccccc2)NC(=O)OC(C)(C)C)[C@H]1O)C(C)C", "read by": "absorbance", "dose": "10 µM", "value": "0%"}
{"structure": "CCCC1(CCc2ccccc2)OC(=O)C(C(c2ccccc2)C2CC2)=C1O", "read by": "fluorescence", "dose": "3.3 µM", "value": "100%"}
{"structure": "CC[C@H](C)C(NC(=O)CNCC(O)[C@H](Cc1ccccc1)NC(=O)OCc1ccccc1)C(=O)N[C@@H](Cc1ccccc1)C(=O)OC", "dose": "10 µM", "value": "3%"}
{"structure": "CCOC(=O)[C@@]1(C)CC[C@]2(C)CC[C@]3(C)C(=CC(=O)[C@@H]4[C@@]5(C)CC/C(=N\\OCc6cc(F)cc(F)c6)C(C)(C)[C@@H]5CC[C@]43C)[C@@H]2C1", "read by": "substrate cleavage / fluorescence", "dose": "1000 µg/mL", "value": "39.3%"}
{"structure": "O=C([C@@H]1O[C@]2(c3ccccc3)CN(C(c3ccccc3)c3ccccc3)C(=O)[C@H]1O2)N1CCCNCC1", "read by": "FRET", "dose": "10 µM", "value": "0%"}
{"structure": "CC[C@H](C)[C@H](NC(=O)C[C@H](O)[C@H](Cc1ccccc1)NC(=O)OC(C)(C)C)C(=O)N[C@@H](Cc1ccccc1)C(=O)OC", "dose": "10 µM", "value": "74%"}
{"structure": "CC(C)(C)C(=O)OC[C@H]1O[C@@H](Oc2ccccc2)[C@H](O)[C@@H](OC(=O)C(C)(C)C)[C@@H]1O", "dose": "100 µM", "value": "24%"}
{"structure": "CC(C[C@@H](OC(=O)CC(C)(C)CC(=O)O)[C@H](OC(=O)CC(C)(C)CC(=O)O)C(C)(C)O)[C@@H]1CC[C@]2(C)C3=CCC4C(C)(C)C(=O)CC[C@]4(C)C3CC[C@@]12C", "read by": "substrate cleavage / fluorescence", "dose": "100 µg/mL", "value": "46.5%"}
{"structure": "CCOC(=O)[C@@]1(C)CC[C@]2(C)CC[C@]3(C)C(=CC(=O)[C@@H]4[C@@]5(C)CC/C(=N\\OCc6ccc(-c7ccccc7)cc6)C(C)(C)[C@@H]5CC[C@]43C)[C@@H]2C1", "read by": "substrate cleavage / fluorescence", "dose": "1000 µg/mL", "value": "20.3%"}
{"structure": "CC(C)(C)OC(=O)N[C@H]1CCCCNC(=O)CCC(=O)NCCCC[C@@H](C(N)=O)NC(=O)[C@H](Cc2ccccc2)NC(=O)C[C@H](Cc2ccccc2)NC1=O", "dose": "10 µM", "value": "3%"}
{"structure": "CCOC(=O)[C@H](CC(C)C)NC(=O)[C@H](Cc1ccccc1)NC(=O)[C@@H](O)[C@H](Cc1ccccc1)NC(=O)OC(C)(C)C", "read by": "HPLC", "dose": "27 µM", "value": "0%"}
{"structure": "N[C@@H](Cc1ccccc1)C(=O)N[C@@H](CO)C(=O)N[C@@H](Cc1ccccc1)[C@H](O)C(=O)NCC1CCCCC1", "dose": "1000 µM", "value": "76.2%"}
{"structure": "CC(C)(C)C(=O)OC[C@@H]1[C@@H](O)[C@H](OC(=O)C(C)(C)C)[C@H](O)C[NH+]1Cc1ccccc1", "dose": "100 µM", "value": "8%"}
{"structure": "COC(=O)[C@H](CC(C)C)NC(=O)C[C@@H]1CC[C@@H](O)[C@@H]1NC(=O)[C@H](C)NC(=O)OC(C)(C)C", "read by": "absorbance", "dose": "10 µM", "value": "19%"}
{"structure": "CCCC1(CCC)OC(=O)C(C(c2cccc(NS(=O)(=O)c3cn(C)cn3)c2)C2CC2)=C1O", "read by": "fluorescence", "dose": "3.3 µM", "value": "100%"}
{"structure": "CC[C@H](C)[C@H](NC(=O)[C@H](Cc1ccccc1)NC[C@H](Cc1ccccc1)NC(=O)OC(C)(C)C)C(=O)N[C@@H](Cc1ccccc1)C(=O)OC", "dose": "10 µM", "value": "42%"}
{"structure": "CCOC(=O)[C@@]1(C)CC[C@]2(C)CC[C@]3(C)C(=CC(=O)[C@@H]4[C@@]5(C)CC/C(=N\\OCc6ccccc6)C(C)(C)[C@@H]5CC[C@]43C)[C@@H]2C1", "read by": "substrate cleavage / fluorescence", "dose": "1000 µg/mL", "value": "11.8%"}
{"structure": "C=C(C)[C@@H]1CC[C@@]2(C)C1C1CCC3[C@@](C)(CC(=O)O)C(C(C)(C)C(=O)O)CC[C@@]3(C)[C@]1(C)C[C@@H]2O", "read by": "substrate cleavage / fluorescence", "dose": "100 µg/mL", "value": "59.2%"}
{"structure": "CCOC(=O)[C@@]1(C)CC[C@]2(C)CC[C@]3(C)C(=CC(=O)[C@@H]4[C@@]5(C)CC/C(=N\\OCC6(C)COC6)C(C)(C)[C@@H]5CC[C@]43C)[C@@H]2C1", "read by": "substrate cleavage / fluorescence", "dose": "1000 µg/mL", "value": "38.9%"}
{"structure": "CC[C@@H](C)[C@H](NC(=O)[C@@H]1CCCN1C(=O)[C@@H](O)[C@H](CC1CCCCC1)NC(=O)[C@H](Cc1cnc[nH]1)NC(=O)CCc1ccccc1)C(=O)N[C@H](C(N)=O)C(C)C", "dose": "5 µM", "value": "81.8%"}
{"structure": "CO[C@@H]([C@@H](CC(C)[C@@H]1CC[C@]2(C)C3=CCC4C(C)(C)C(OC(=O)CCC(=O)O)CC[C@]4(C)C3CC[C@@]12C)OC(C)(C)C)C(C)(C)O", "read by": "substrate cleavage / fluorescence", "dose": "100 µg/mL", "value": "51.2%"}
{"structure": "CCOC(=O)[C@@]1(C)CC[C@]2(C)CC[C@]3(C)C(=CC(=O)[C@@H]4[C@@]5(C)CC/C(=N\\OCc6ccc(Cl)c(Cl)c6)C(C)(C)[C@@H]5CC[C@]43C)[C@@H]2C1", "read by": "substrate cleavage / fluorescence", "dose": "1000 µg/mL", "value": "7.38%"}
{"structure": "CC[C@H](C)[C@H](NC(=O)[C@@H]1CCCN1C(=O)[C@H](O)[C@H](CC1CCCCC1)NC(=O)[C@H](CC(N)=O)NC(=O)CCc1ccccc1)C(=O)N[C@H](C(N)=O)C(C)C", "dose": "5 µM", "value": "18.7%"}
{"structure": "CCC1(Cc2ccccc2)OC(=O)C(C(c2ccccc2)C2CC2)=C1O", "read by": "fluorescence", "dose": "10 µM", "value": "100%"}
{"structure": "O=C([C@H]1O[C@H]2CN(Cc3ccccc3)C(=O)[C@@H]1O2)N1CCSCC1", "read by": "FRET", "dose": "10 µM", "value": "0%"}
{"structure": "CC[C@@H](C)[C@H](NC(=O)[C@@H]1CCCN1C(=O)[C@@H](O)[C@H](CC1CCCCC1)NC(=O)[C@H](CC(N)=O)NC(=O)OCC1c2ccccc2-c2ccccc21)C(=O)N[C@H](C(N)=O)C(C)C", "dose": "5 µM", "value": "99%"}
{"structure": "CCCCC1(CCCc2ccccc2)OC(=O)C(C(c2ccccc2)C2CC2)=C1O", "read by": "fluorescence", "dose": "3.3 µM", "value": "100%"}
{"structure": "Cc1cc(C)[n+](C[n+]2[nH]c(C)cc2C)[nH]1.[Cl-].[Cl][Au-]([Cl])([Cl])[Cl]", "read by": "substrate cleavage", "dose": "100 µM", "value": "62.7%"}
{"structure": "CC[C@H](C)[C@H](NC(=O)OC(C)(C)C)C(=O)N[C@@H]1CC[C@H](CC(=O)N[C@H](C(=O)OC)C(C)C)[C@H]1O", "read by": "absorbance", "dose": "10 µM", "value": "21%"}
{"structure": "COC(=O)[C@H](CC(C)C)N1C[C@@H]2O[C@H](C(=O)N3CCCCC3)[C@@H](O2)C1=O", "read by": "FRET", "dose": "10 µM", "value": "0%"}
{"structure": "CC(C)[C@H](NC(=O)[C@@H]1CCCN1C(=O)[C@@H](O)[C@H](Cc1ccccc1)NC(=O)[C@H](CC(N)=O)NC(=O)CCc1ccccc1)C(N)=O", "dose": "5 µM", "value": "60.9%"}
{"structure": "COC(=O)[C@@H](NC(=O)C[C@H]1CC[C@H](O)[C@H]1NC(=O)[C@H](Cc1ccccc1)NC(=O)OC(C)(C)C)C(C)C", "read by": "absorbance", "dose": "10 µM", "value": "27%"}

Again, the opening 6 rows:

structure	read by	dose	value
CCCCC1(CCCC)OC(=O)C(C(c2ccccc2)C2CC2)=C1O	fluorescence	3.3 µM	100%
CC[C@H](C)[C@H](NC(=O)[C@H](Cc1ccccc1)NCC(O)[C@H](Cc1ccccc1)NC(=O)OC(C)(C)C)C(=O)N[C@@H](Cc1ccccc1)C(=O)OC		10 µM	91%
O=C(O)[C@@H]1O[C@@H](Oc2cc3oc(-c4ccccc4)cc(=O)c3c(O)c2O)[C@@H](O)[C@H](O)[C@H]1O	substrate cleavage / fluorescence	1000 µg/mL	53.5%
O=C1OC(CCCc2ccccc2)(Cc2ccccc2)C(O)=C1C(c1ccccc1)C1CC1	fluorescence	3.3 µM	100%
CO[C@@H]([C@@H](CC(C)[C@@H]1CC[C@]2(C)C3=CCC4C(C)(C)C(O)CC[C@]4(C)C3CC[C@@]12C)OC(C)(C)C)C(C)(C)O	substrate cleavage / fluorescence	100 µg/mL	41.6%
CCOC(=O)[C@@]1(C)CC[C@]2(C)CC[C@]3(C)C(=CC(=O)[C@@H]4[C@@]5(C)CC/C(=N\OCc6ccc(Cl)cc6)C(C)(C)[C@@H]5CC[C@]43C)[C@@H]2C1	substrate cleavage / fluorescence	1000 µg/mL	11.8%